Results of unrelated studies side by side (data: NIAID ChemDB).

ECn is the concentration giving n% inhibition of infection, replication or growth. Blank or dashed fields: not listed here. ICn is the concentration giving n% inhibition. Percent inhibition refers to the dose given; in toxicity tests it is the harm to the cells. MIC bound: limit read from a one-dose screen. CCn: concentration that lowers growth or viability of the cells by n%. Rows are shuffled and stem from different studies.

{"compound": "CN1C(=O)N(C)P12(Cl)N(C)C(=O)N2C", "organism": "Mycobacterium tuberculosis", "strain": "H37Rv", "read by": "BACTEC", "kind": "culture", "read-out": "MIC bound", "value": ">12.5 µg/mL"}
{"compound": "Cc1cn([C@H]2C[C@H](N=[N+]=[N-])[C@@H](COP(=O)(O)F)O2)c(=O)[nH]c1=O", "kind": "toxicity", "read-out": "CC50", "cell line": "MT-4", "value": ">100 µM"}
{"compound": "N#Cc1c(SCCBr)nsc1-c1ccccc1", "organism": "Herpes simplex virus 1", "strain": "F", "read by": "plaque count", "kind": "culture", "read-out": "EC50", "cell line": "VERO", "value": ">25 µg/mL"}
{"compound": "CCN(CC)CC#CCOC(=O)C(O)(c1ccccc1)c1cccs1", "organism": "Mycobacterium tuberculosis", "strain": "H37Rv", "kind": "culture", "read-out": "MIC bound", "value": ">6.25 µg/mL"}
{"compound": "Cc1cn([C@H]2C[C@H](N=[N+]=[N-])[C@@H](CO)O2)c(=O)[nH]c1=O", "kind": "toxicity", "read-out": "CC50", "cell line": "MT-4", "value": "154 µM"}
{"compound": "Cc1cn([C@H]2C[C@H](F)[C@@H](CO)O2)c(=O)[nH]c1=O", "dose": "0.05 µM", "organism": "HIV-1", "read by": "p24", "kind": "culture", "read-out": "inhibition", "cell line": "H9", "value": "54.73%"}
{"compound": "Nc1ncnc2c1ncn2[C@H]1CC[C@@H](CO)O1", "organism": "HIV-1", "read by": "p24 / ELISA", "kind": "culture", "read-out": "EC50", "cell line": "MT-4", "value": "5.04 µM"}
{"compound": "CCc1cn([C@H]2C[C@H](O)[C@@H](COP(=O)(O)F)S2)c(=O)[nH]c1=O", "organism": "Herpes simplex virus 1", "strain": "L2/R acyclovir-resistant", "read by": "cytopathic effect", "kind": "culture", "read-out": "EC50", "cell line": "VERO", "value": "269 µM"}
{"compound": "Cc1cn([C@H]2CC[C@@H](CO)O2)c(=O)[nH]c1=O", "organism": "HIV-1", "read by": "RT activity", "kind": "culture", "read-out": "EC50", "cell line": "MT-4", "value": "5.52 µM"}
{"compound": "Cc1ccc([N+](=O)[O-])cc1NC(=O)NNc1c([N+](=O)[O-])cc(C(F)(F)F)cc1[N+](=O)[O-]", "organism": "Mycobacterium tuberculosis", "strain": "H37Rv", "read by": "BACTEC", "kind": "culture", "read-out": "MIC", "value": "12.5 µg/mL"}
{"compound": "Cc1c([N+](=O)[O-])c(C)c(S(=O)(=O)c2c(C)c([N+](=O)[O-])c(C)c([N+](=O)[O-])c2C)c(C)c1[N+](=O)[O-]", "protein": "Integrase", "organism": "HIV-1", "read by": "strand transfer", "kind": "target", "read-out": "IC50", "value": ">100 µM"}
{"compound": "S=P1(Oc2ccccc2)NNP2(=NP(Cl)(Cl)=NP(Cl)(Cl)=N2)NN1", "dose": "128 µg/mL", "organism": "Mycobacterium tuberculosis", "strain": "H37Rv", "read by": "BACTEC", "kind": "culture", "read-out": "inhibition", "value": "100%"}
{"compound": "O=[N+]([O-])c1cc(Cn2nnc(-c3cc([N+](=O)[O-])cc([N+](=O)[O-])c3)n2)cc([N+](=O)[O-])c1", "organism": "Mycobacterium kansasii", "strain": "My 235/80", "kind": "culture", "conditions": "7 d", "read-out": "MIC", "value": "1 µM"}
{"compound": "CCCCN(CCCl)C[C@@H]1CS[C@H](C)O1.O=C(O)C(=O)O", "dose": "12.5 µg/mL", "organism": "Mycobacterium tuberculosis", "strain": "H37Rv", "read by": "BACTEC", "kind": "culture", "read-out": "inhibition", "value": "0%"}
{"compound": "Nc1cc([As]=O)ccc1O", "organism": "HIV-1", "strain": "G910-6", "read by": "MTT / p24", "kind": "culture", "read-out": "EC50", "cell line": "MT-2", "value": "0.33 µg/mL"}

Repeating the final 2 entries:

compound | dose | protein | organism | strain | read by | kind | conditions | read-out | cell line | value
CCCCN(CCCl)C[C@@H]1CS[C@H](C)O1.O=C(O)C(=O)O | 12.5 µg/mL | - | Mycobacterium tuberculosis | H37Rv | BACTEC | culture | - | inhibition | - | 0%
Nc1cc([As]=O)ccc1O | - | - | HIV-1 | G910-6 | MTT / p24 | culture | - | EC50 | MT-2 | 0.33 µg/mL